Data reported in patent publication US20240109955A1 (published 2024).

Columns and labels:
Experiment in all cases: cell-based or functional assay
[1] = target: SARS-CoV-2 spike protein, Omicron BF.7 (SARS-CoV-2)
[2] = target: SARS-CoV-2 Omicron BA.4/5 spike protein (SARS-CoV-2, UniProt P0DTC2 14-1273)
[3] = target: SARS-CoV-2 Omicron BQ.1.1 spike protein (SARS-CoV-2, UniProt P0DTC2 14-1273)
[4] = target: SARS-CoV-2 Omicron XBB spike protein (SARS-CoV-2, UniProt P0DTC2 14-1273)
[5] = target: SARS-CoV-2 spike protein, Omicron sublineage BA.2.12.1 (SARS-CoV-2, UniProt P0DTC2 14-1273)

B1: MX1086 (antibody)
chain 1: EIVMTQSPAILSVSPGERATLSCRASQSVAINLAWYQQKPGQAPRLLIYAASSRATGIPGRFSGSGSETNFTLTISSLQSGDFAVYYCQQYITWPPSYTFGQGTKLEIKGGSSGDTVMTQSPLSLPVTPGEPASISCRSSQSLLNSNGYNYLDWYVQKPGQSPQLLIYLGSNRASGVPDRFSGSGSGTDFTLKISRVEAEDVGVYYCMQPLQTPLFTFGPGTKVEIKGGGGSGGSGSGGGGSASGSGQVTLRESGPALVKPTQTLTLTCTFSGFSLSTRGVCVSWIRQPPGKALEWLAFIDWDDDKYYNTSLKTRLTISKDTSKNQVVLTMTNVHPVDTATYYCARISSHHGSSWCTTFDYWGQGALVTVSAGGSSGEVQLVESGGALIQPGGSLRLSCAASGIIVSANYMSWVRQAPGKGLEWVSVIYSGGSTFYADSVKGRFTISRDNSKNTLYLEMNSLRAEDTAVYYCARDAPILGVSDWGQGTLVTVSSASGGSGDKTHTCPPCPAPELLGGPSVFLFPPKPKDTLMISRTPEVTCVVVDVSHEDPEVKFNWYVDGVEVHNAKTKPREEQYNSYVVSVLTVLHQDWLNGKEYKCKVSNKALPAPIEKTISKAKGQPREPQVCTLPPSRDELTKNQVSLSCAVKGFYPSDIAVEWESNGQPENNYKTTPPVLDSDGSFFLVSKLTVDKSRWQQGNVFSCSVLHEALHSHYTQKSLSLSPG
chain 2: QTVVTQEPSFSVSPGGTVTLTCGLSSGSVSTAYFPSWYQQTPGQAPRTLIYGTNTRSSGVPDRFSGSILGNKAALTITGAQADDESDYYCVLYMGRGIVVFGGGTKLTVLGGSSGEIVLTQSPGTLSLSPGETATLSCRASQSFSSDLAWYQQKPGQAPRLLIYGASSRATGIPDRFSGSGSGTDFTLTISRLEPADFAVYYCQQYGSSPPVTFGGGTKVEIKGGGGSGGSGSGGGGSASGSGEVQLVESGGGLIQPGGSLRLSCAASGVIVSYNYMNWVRQAPGKGLEWVSVIYSGGSTFYADSVRGRFTISRDNSKNTLYLQMNSLRAEDTAVYYCARDLGPAGAFDIWGLGTMVTVSSGGSSGQVQLVESGGGVVQPGRSLRLSCAASGFTLSSYGMHWVRQAPGKGLEWVAVISYDGSNKYYVDSVKGRFTISRDNSKNTLYLQMNSLRAEDTAVYYCRWAYWELLPDYYYGMDVWGQGTTVTVSSASGGSGDKTHTCPPCPAPELLGGPSVFLFPPKPKDTLMISRTPEVTCVVVDVSHEDPEVKFNWYVDGVEVHNAKTKPREEQYNSYVVSVLTVLHQDWLNGKEYKCKVSNKALPAPIEKTISKAKGQPREPQVYTLPPCRDELTKNQVSLWCLVKGFYPSDIAVEWESNGQPENNYKTTPPVLDSDGSFFKKLTVDKSRWQQGNVFSCSVLHEALHSHYTQKSLSLSPG
- IC50, pseudovirus neutralization [1]: 0.00849 µg/mL
- IC80, pseudovirus neutralization [1]: 0.0223 µg/mL

B2: MX1087 (antibody)
chain 1: QTVVTQEPSFSVSPGGTVTLTCGLSSGSVSTAYFPSWYQQTPGQAPRTLIYGTNTRSSGVPDRFSGSILGNKAALTITGAQADDESDYYCVLYMGRGIVVFGGGTKLTVLGGSSGEIVMTQSPAILSVSPGERATLSCRASQSVAINLAWYQQKPGQAPRLLIYAASSRATGIPGRFSGSGSETNFTLTISSLQSGDFAVYYCQQYITWPPSYTFGQGTKLEIKGGGGSGGSGSGGGGSASGSGEVQLVESGGALIQPGGSLRLSCAASGIIVSANYMSWVRQAPGKGLEWVSVIYSGGSTFYADSVKGRFTISRDNSKNTLYLEMNSLRAEDTAVYYCARDAPILGVSDWGQGTLVTVSSGGSSGQVQLVESGGGVVQPGRSLRLSCAASGFTLSSYGMHWVRQAPGKGLEWVAVISYDGSNKYYVDSVKGRFTISRDNSKNTLYLQMNSLRAEDTAVYYCRWAYWELLPDYYYGMDVWGQGTTVTVSSASGGSGDKTHTCPPCPAPELLGGPSVFLFPPKPKDTLMISRTPEVTCVVVDVSHEDPEVKFNWYVDGVEVHNAKTKPREEQYNSYVVSVLTVLHQDWLNGKEYKCKVSNKALPAPIEKTISKAKGQPREPQVYTLPPCRDELTKNQVSLWCLVKGFYPSDIAVEWESNGQPENNYKTTPPVLDSDGSFFKKLTVDKSRWQQGNVFSCSVLHEALHSHYTQKSLSLSPG
chain 2: EIVLTQSPGTLSLSPGETATLSCRASQSFSSDLAWYQQKPGQAPRLLIYGASSRATGIPDRFSGSGSGTDFTLTISRLEPADFAVYYCQQYGSSPPVTFGGGTKVEIKGGSSGDTVMTQSPLSLPVTPGEPASISCRSSQSLLNSNGYNYLDWYVQKPGQSPQLLIYLGSNRASGVPDRFSGSGSGTDFTLKISRVEAEDVGVYYCMQPLQTPLFTFGPGTKVEIKGGGGSGGSGSGGGGSASGSGQVTLRESGPALVKPTQTLTLTCTFSGFSLSTRGVCVSWIRQPPGKALEWLAFIDWDDDKYYNTSLKTRLTISKDTSKNQVVLTMTNVHPVDTATYYCARISSHHGSSWCTTFDYWGQGALVTVSAGGSSGEVQLVESGGGLIQPGGSLRLSCAASGVIVSYNYMNWVRQAPGKGLEWVSVIYSGGSTFYADSVRGRFTISRDNSKNTLYLQMNSLRAEDTAVYYCARDLGPAGAFDIWGLGTMVTVSSASGGSGDKTHTCPPCPAPELLGGPSVFLFPPKPKDTLMISRTPEVTCVVVDVSHEDPEVKFNWYVDGVEVHNAKTKPREEQYNSYVVSVLTVLHQDWLNGKEYKCKVSNKALPAPIEKTISKAKGQPREPQVCTLPPSRDELTKNQVSLSCAVKGFYPSDIAVEWESNGQPENNYKTTPPVLDSDGSFFLVSKLTVDKSRWQQGNVFSCSVLHEALHSHYTQKSLSLSPG
- IC50, pseudovirus neutralization [1]: 0.00906 µg/mL
- IC80, pseudovirus neutralization [1]: 0.0314 µg/mL

B3: MX1029 (antibody)
chain: EIVLTQSPGTLSLSPGETATLSCRASQSFSSDLAWYQQKPGQAPRLLIYGASSRATGIPDRFSGSGSGTDFTLTISRLEPADFAVYYCQQYGSSPPVTFGGGTKVEIKGGSSGEIVLTQSPGTLSLSPGETATLSCRASQSFSSDLAWYQQKPGQAPRLLIYGASSRATGIPDRFSGSGSGTDFTLTISRLEPADFAVYYCQQYGSSPPVTFGGGTKVEIKGGGGSGGSGSGGGGSASGSGEVQLVESGGGLIQPGGSLRLSCAASGVIVSYNYMNWVRQAPGKGLEWVSVIYSGGSTFYADSVRGRFTISRDNSKNTLYLQMNSLRAEDTAVYYCARDLGPAGAFDIWGLGTMVTVSSGGSSGEVQLVESGGGLIQPGGSLRLSCAASGVIVSYNYMNWVRQAPGKGLEWVSVIYSGGSTFYADSVRGRFTISRDNSKNTLYLQMNSLRAEDTAVYYCARDLGPAGAFDIWGLGTMVTVSSASGGSGDKTHTCPPCPAPELLGGPSVFLFPPKPKDTLMISRTPEVTCVVVDVSHEDPEVKFNWYVDGVEVHNAKTKPREEQYNSYVVSVLTVLHQDWLNGKEYKCKVSNKALPAPIEKTISKAKGQPREPQVYTLPPSRDELTKNQVSLTCLVKGFYPSDIAVEWESNGQPENNYKTTPPVLDSDGSFFKKLTVDKSRWQQGNVFSCSVLHEALHSHYTQKSLSLSPG
- IC50, pseudovirus neutralization [2]: 0.00862 µg/mL
- IC80, pseudovirus neutralization [2]: 0.0341 µg/mL
- IC50, pseudovirus neutralization [3]: 0.00379 µg/mL
- IC80, pseudovirus neutralization [3]: 0.00678 µg/mL

B4: MX1020 (antibody)
chain: DTVMTQSPLSLPVTPGEPASISCRSSQSLLNSNGYNYLDWYVQKPGQSPQLLIYLGSNRASGVPDRFSGSGSGTDFTLKISRVEAEDVGVYYCMQPLQTPLFTFGPGTKVEIKGGSSGDTVMTQSPLSLPVTPGEPASISCRSSQSLLNSNGYNYLDWYVQKPGQSPQLLIYLGSNRASGVPDRFSGSGSGTDFTLKISRVEAEDVGVYYCMQPLQTPLFTFGPGTKVEIKGGGGSGGSGSGGGGSASGSGQVTLRESGPALVKPTQTLTLTCTFSGFSLSTRGVCVSWIRQPPGKALEWLAFIDWDDDKYYNTSLKTRLTISKDTSKNQVVLTMTNVHPVDTATYYCARISSHHGSSWCTTFDYWGQGALVTVSAGGSSGQVTLRESGPALVKPTQTLTLTCTFSGFSLSTRGVCVSWIRQPPGKALEWLAFIDWDDDKYYNTSLKTRLTISKDTSKNQVVLTMTNVHPVDTATYYCARISSHHGSSWCTTFDYWGQGALVTVSAASGGSGDKTHTCPPCPAPELLGGPSVFLFPPKPKDTLMISRTPEVTCVVVDVSHEDPEVKFNWYVDGVEVHNAKTKPREEQYNSYVVSVLTVLHQDWLNGKEYKCKVSNKALPAPIEKTISKAKGQPREPQVYTLPPSRDELTKNQVSLTCLVKGFYPSDIAVEWESNGQPENNYKTTPPVLDSDGSFFKKLTVDKSRWQQGNVFSCSVLHEALHSHYTQKSLSLSPG
- IC50, pseudovirus neutralization [2]: 0.0036 µg/mL
- IC80, pseudovirus neutralization [2]: 0.00794 µg/mL
- IC50, pseudovirus neutralization [3]: 0.00219 µg/mL
- IC80, pseudovirus neutralization [3]: 0.00361 µg/mL

B5: MX1025 (antibody)
chain: EIVLTQSPGTLSLSPGETATLSCRASQSFSSDLAWYQQKPGQAPRLLIYGASSRATGIPDRFSGSGSGTDFTLTISRLEPADFAVYYCQQYGSSPPVTFGGGTKVEIKGGGGSGGSGSGGGGSASGSGEVQLVESGGGLIQPGGSLRLSCAASGVIVSYNYMNWVRQAPGKGLEWVSVIYSGGSTFYADSVRGRFTISRDNSKNTLYLQMNSLRAEDTAVYYCARDLGPAGAFDIWGLGTMVTVSSASGGSGDKTHTCPPCPAPELLGGPSVFLFPPKPKDTLMISRTPEVTCVVVDVSHEDPEVKFNWYVDGVEVHNAKTKPREEQYNSYVVSVLTVLHQDWLNGKEYKCKVSNKALPAPIEKTISKAKGQPREPQVYTLPPSRDELTKNQVSLTCLVKGFYPSDIAVEWESNGQPENNYKTTPPVLDSDGSFFKKLTVDKSRWQQGNVFSCSVLHEALHSHYTQKSLSLSPG
- IC50, pseudovirus neutralization [4]: 0.0328 µg/mL
- IC50, pseudovirus neutralization [3]: 0.0303 µg/mL
- IC80, pseudovirus neutralization [3]: 0.035 µg/mL

B6: MX1026 (antibody)
chain: DTVMTQSPLSLPVTPGEPASISCRSSQSLLNSNGYNYLDWYVQKPGQSPQLLIYLGSNRASGVPDRFSGSGSGTDFTLKISRVEAEDVGVYYCMQPLQTPLFTFGPGTKVEIKGGGGSGGSGSGGGGSASGSGQVTLRESGPALVKPTQTLTLTCTFSGFSLSTRGVCVSWIRQPPGKALEWLAFIDWDDDKYYNTSLKTRLTISKDTSKNQVVLTMTNVHPVDTATYYCARISSHHGSSWCTTFDYWGQGALVTVSAASGGSGDKTHTCPPCPAPELLGGPSVFLFPPKPKDTLMISRTPEVTCVVVDVSHEDPEVKFNWYVDGVEVHNAKTKPREEQYNSYVVSVLTVLHQDWLNGKEYKCKVSNKALPAPIEKTISKAKGQPREPQVYTLPPSRDELTKNQVSLTCLVKGFYPSDIAVEWESNGQPENNYKTTPPVLDSDGSFFKKLTVDKSRWQQGNVFSCSVLHEALHSHYTQKSLSLSPG
- IC50, pseudovirus neutralization [4]: 1.25 µg/mL
- IC80, pseudovirus neutralization [4]: 4.54 µg/mL
- IC50, pseudovirus neutralization [3]: 0.963 µg/mL
- IC80, pseudovirus neutralization [3]: 3.94 µg/mL

B7: A23-58.1HC/58.1LC_93VGLTG (antibody, V domains shown)
VH: QMQLVQSGPEVKKPGTSVKVSCKASGFTFTSSAVQWVRQRQRLEWIGWIVVGSGNTNYAQKFQERVTITRDMSTSTAYMELSSLRSEDTAVYYCAAPNCSNVVCYDGFDIWGQGTMVTVSS
VL: EIVLTQSPGTLSLSPGERATLSCRASQSVSSSYLAWYQQKPGQAPRLLIYSASSRATGIPDRFSGSGSGTDFTLTISRLEPEDFAVYFCQQYVGLTGWTFGQGTKVEIK
- IC50, pseudovirus neutralization [5]: 3.4 nM
- IC80, pseudovirus neutralization [5]: 11.5 nM
